## Share of PSTVd stem 3 variants by leaf site

From the data files of Wu et al. 2024, doi:10.1371/journal.ppat.1012142.

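A pool of all variants was put on leaves of three Nicotiana benthamiana plants. Progeny were sequenced from the inoculated region (day 5), the margin of the inoculated leaf (day 10) and systemic leaves (day 12).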

PSTVd intermediate strain, stem 3: wild type GUGGUUCCGGAACCGC, pool pattern GUGGUUCCGNANNCNN; upper and lower strand joined, each 5' to 3', the first 8 letters being the upper strand.

Numbers give reads per thousand; 0 = not seen among the reads, higher = more abundant.
Each value is the mean of three plants.
"Pool" is the share in the plasmid pool used as inoculum, on the same scale.
The inoculated region was read from the minus strand, the other sites from the plus strand.
Sequences that differ at fixed positions probably stem from PCR or sequencing errors, and defective variants can be carried along by functional ones.
With 27,691-54,225 reads a sample, very low values are single reads.
Wild type was 17.3 per thousand in the pool and the most common sequence in every sample (inoculated region 330, 345, 235; leaf margin 794, 766, 816; systemic leaves 830, 792, 869).

sequence | pool | inoculated region | leaf margin | systemic leaves
GGGGGUCCGCAGACGU | 0.0154 | 0 | 0 | 0
GUGGGUCCGUAAGCUU | 0.0154 | 0 | 0 | 0
GUGGUUCAGUACCCCG | 0.0154 | 0 | 0 | 0
GUGGUUCCCAGGCGUA | 0.0154 | 0.370 | 0 | 0
GUGGUUCCGAAAACUU | 1.79 | 1.31 | 0.0106 | 0.0559
GUGGUUCCGAACUCAC | 0.893 | 0.846 | 0.407 | 0
GUGGUUCCGAACUCGU | 0.877 | 0.754 | 0.518 | 0
GUGGUUCCGAAGCCAU | 1.43 | 0.847 | 0.939 | 1.15
GUGGUUCCGAAGGCGG | 1.83 | 0.930 | 0 | 0.0870
GUGGUUCCGAAGUCCA | 1.35 | 1.01 | 0.982 | 1.08
GUGGUUCCGAAUACAG | 0.877 | 0.675 | 0 | 0
GUGGUUCCGAAUGCUC | 1.05 | 0.380 | 0.0120 | 0
GUGGUUCCGCAACCGA | 0.877 | 0.299 | 0.0120 | 0.00811
GUGGUUCCGCAACCGG | 0.739 | 0.375 | 0.0226 | 0
GUGGUUCCGCACACCG | 0.631 | 0.245 | 0.0120 | 0
GUGGUUCCGCACCCGA | 0.846 | 0.390 | 0.0106 | 0
GUGGUUCCGCACCCGU | 0.816 | 0.306 | 0 | 0
GUGGUUCCGCAGACUU | 0.877 | 1.17 | 0 | 0
GUGGUUCCGCAGCCCC | 1.29 | 0.798 | 0.0755 | 0.0246
GUGGUUCCGCAGCCCU | 0.954 | 0.787 | 0 | 0
GUGGUUCCGCAUUCAC | 0.677 | 0.855 | 0.128 | 0
GUGGUUCCGGAAUCAC | 1.00 | 0.889 | 0.527 | 0
GUGGUUCCGGAGACAA | 0.970 | 1.14 | 0.643 | 0
GUGGUUCCGGAGACCC | 1.26 | 0.718 | 0.0120 | 0.0497
GUGGUUCCGGAGACGG | 0.739 | 0.313 | 0 | 0
GUGGUUCCGGAGGCGG | 1.45 | 0.494 | 0.0212 | 0.112
GUGGUUCCGGAUACGC | 0.754 | 0.354 | 0.0453 | 0
GUGGUUCCGGAUGCGU | 0.877 | 0.425 | 0 | 0
GUGGUUCCGGUACCGC | 0.0616 | 0.184 | 0.212 | 0.330
GUGGUUCCGUAACCCU | 0.893 | 0.277 | 0.0215 | 0
GUGGUUCCGUACUCAG | 1.06 | 0.726 | 0 | 0
GUGGUUCCGUAGACUA | 0.723 | 0.355 | 0.00944 | 0
GUGGUUCCGUAUACAU | 1.54 | 1.09 | 0.0215 | 0.00615
GUGGUUCCGUAUCCAC | 0.769 | 0.342 | 0 | 0
GUGGUUCCGUAUCCGU | 0.831 | 0.288 | 0.0226 | 0
GUGGUUCCGUAUCCUU | 0.893 | 0.391 | 0.0332 | 0.0392
GUGGUUCCGUAUUCAA | 0.693 | 0.968 | 0.156 | 0
GUGGUUCCGUAUUCCU | 0.877 | 0.808 | 0 | 0.0184